A mixed list of measured activities; the numbers were collected in NIAID ChemDB.

Common to all: tests in culture; organism: HIV-1; read-out: EC50

An empty or dashed field is not shown. Conditions beyond the fields shown may differ between rows. ECn: concentration that inhibits the pathogen or its effect by n%.

| smiles | strain | changes | cell line | method | conditions | value |
|---|---|---|---|---|---|---|
| Cc1c(O)cccc1C(=O)N[C@@H](CSc1ccccc1)[C@H](O)CN1C[C@H]2CCCC[C@H]2C[C@H]1C(=O)NC(C)(C)C | NL4-3 WT |  | HEK 293 + 293 Cells | luciferase / recombinant virus assay |  | 0.007 µM |
| Cc1cc(C#N)cc(C(=O)c2cc(Cl)ccc2OCC(=O)Nc2ccc(S(N)(=O)=O)nc2C)c1 | HXB2 |  | HeLa + HeLa-MAGI | β-galactosidase |  | 0.002 µM |
| C1=C\CCCCN(CC[C@H]2NCCc3c2[nH]c2ccccc32)CCCC/1 | NL4-3 |  | CEM-GXR | GFP / reporter gene |  | 3.4 µM |
| O=C(O)P(=O)(O)O | 8618 CLADE B CLADE B |  | PBMC | p24 |  | 11 µM |
| C/C(=C(/CCOC(=O)C(C)C)SS/C(CCOC(=O)C(C)C)=C(\C)N(C=O)Cc1cnc(C)nc1N)N(C=O)Cc1cnc(C)nc1N | IIIB |  | MOLT-4/HIV-1(IIIB) + MOLT-4 | p24 |  | >50 µM |
| Cc1cc(C#N)cc(C(=O)c2cc(Cl)ccc2OCC(=O)Nc2cnc(S(N)(=O)=O)cc2C)c1 | HXB2 |  | HeLa + HeLa-MAGI | β-galactosidase |  | 0.001 µM |
| CCCCCCCCCCCCCCCCOP(=O)(OCCO[C@@H]1O[C@H](CO)[C@@H](O)[C@H](O)[C@@H]1O)OC[C@H]1O[C@@H](n2cc(C)c(=O)[nH]c2=O)C[C@@H]1N=[N+]=[N-] | BRU |  | CEM-C113 + CEM/C113 | cytopathic effect / MTT | 7 d | <0.2 µM |
| CC(=O)N[C@@H](CS)C(=O)O | LAV |  | U1 (HIV-1 LAV IL-6 stimulated) + U1 | RT activity |  | <15000 µM |
| CC(=O)O[C@@]12C[C@@H](C)[C@@]3(O)[C@@H](C=C(CO)C[C@]4(O)C(=O)C(C)=C[C@@H]34)[C@@H]1C2(C)C | IIIB |  | C8166 | p24 / ELISA |  | 3.701 µM |
| Nc1ccn([C@@H]2CC[C@H](CO)O2)c(=O)n1 | HXB2 |  | HT4 + HT4 LacZ-1 |  |  | 5 µM |
| Cc1ccnc2c1NC(=O)c1cccnc1N2C1CC1 | HXB2 |  | HeLa + HeLa-MAGI | β-galactosidase |  | 0.088 µM |
| Nc1ccn([C@H]2CC[C@@H](CO)O2)c(=O)n1 | 74V (RT-L74V) | RT-L74V | HT4 + HT4 LacZ-1 |  |  | 3.1 µM |
| CN[C@@H]1C[C@H]2O[C@@](C)([C@@H]1OC)n1c3ccccc3c3c4c(c5c6ccccc6n2c5c31)C(=O)N[C@@H]4O |  |  | MOLT-4/HIV-1 + MOLT-4 | p24 / ELISA |  | >0.08 µM |
| O=c1[nH]cnc2c1ncn2[C@H]1CC[C@@H](CO)O1 | IIIB |  | MOLT-4/C8 + MOLT-4 | syncytia |  | 10 µM |
| CCn1cc(C(=O)O)c(=O)c2cc3c(cc21)OCO3 |  |  | HuT-78 + HUT 78 | antigen |  | >177 µg/mL |
| Cc1cn([C@H]2C[C@H](N=[N+]=[N-])[C@@H](CO)O2)c(=O)[nH]c1=O | BRU |  | CEM-C113 + CEM/C113 | cytopathic effect / MTT | 22 d | 0.45 µM |
| CC(C)CN(C[C@@H](O)[C@H](Cc1ccccc1)NC(=O)O[C@H]1CCOC1)S(=O)(=O)c1ccc(N)cc1 | NL4-3 WT |  | HEK 293 + 293 Cells | luciferase / recombinant virus assay |  | 0.02 µM |
| CC(C)(C)NC(=O)[C@@H]1C[C@@H]2CCCC[C@@H]2CN1C[C@@H](O)[C@H](Cc1ccccc1)NC(=O)[C@H](CC(N)=O)NC(=O)c1ccc2ccccc2n1 | IIIB |  | H9(HIV-1(IIIB)) + H9 | p24 |  | 0.05 µM |
| Cc1ccnc2c1NC(=O)c1cccnc1N2C1CC1 | SF33 |  | TZM-bl | ELISA |  | 0.05 µM |
| OC[C@@H]1CC[C@H](n2cnc3c(Cl)ncnc32)O1 | IIIB |  | ATH9 + ATH8 | cytopathic effect / trypan blue |  | <20 µM |
| CSC[C@H](NC(=O)COc1cccc2cnccc12)C(=O)N[C@@H](Cc1ccccc1)[C@H](O)C(=O)N1CSC(C)(C)[C@H]1C(=O)NC(C)(C)C | ERS104 |  | PBMC(PHA) + PBMC | p24 | clinical isolate | 0.02 µM |
| Cc1cn([C@H]2C[C@H](N=[N+]=[N-])[C@@H](CO)O2)c(=O)[nH]c1=O |  |  | CEM-CD4 | MTT / p24 |  | 0.002 µM |
| CCn1cc(C(=O)O)c(=O)c2ccc(C)nc21 |  |  | HuT-78 + HUT 78 | antigen |  | >79 µg/mL |
| Cc1ccnc2c1NC(=O)c1cccnc1N2C1CC1 | NNRTI-resistant (RT P236L) | RT-P236L | MAGI | β-galactosidase |  | 0.056 µM |
| Cc1cc(N2CCS(=O)CC2)ccc1NC(=O)COc1ccc(Cl)cc1C(=O)c1ccccc1 | HXB2 |  | HeLa + HeLa-MAGI | β-galactosidase |  | 0.017 µM |
| Cc1cn([C@H]2C[C@H](N=[N+]=[N-])[C@@H](COP(=O)(O)OC[C@H]3O[C@@H](OCCO)[C@@H](O)[C@@H](O)[C@@H]3O)O2)c(=O)[nH]c1=O | BRU |  | CEM-C113 + CEM/C113 | cytopathic effect / MTT | 7 d | <0.2 µM |
| CC(C)(C)NC(=O)C1N(C(=O)[C@@H](O)[C@H](Cc2ccccc2)NC(=O)[C@H](CS(C)(=O)=O)NC(=O)COc2cccc3ccccc23)CSC1(C)C | ERS104 |  | PBMC(PHA) + PBMC | p24 | clinical isolate | 0.02 µM |
| CN(Cc1ccc(F)cc1F)c1ccc([N+](=O)[O-])cn1 | NL4-3 |  | HEK 293 | flow cytometry | pseudotyped | 4.4 µM |
| Cc1cc(S(N)(=O)=O)ccc1NC(=O)COc1ccc(Cl)cc1C(=O)c1cc(F)cc(C(F)(F)F)c1 | HXB2 |  | HeLa + HeLa-MAGI | β-galactosidase |  | 0.0014 µM |
| CC(C)=CCN1Cc2cc(Cl)cc3[nH]c(=S)n(c23)C[C@@H]1C | HXB2 | RT-M41L Y181C T215Y | HT4 + HT4 LacZ-1 | plaque count |  | 2.8 µM |
| C[C@@H]1CN2CCC[C@@H]3CCCCC[C@@H]4C(=O)[C@@H](C)CN5CCC[C@@H](CCCCC[C@@H](C1=O)[C@H]32)[C@H]45 | MN |  | MAGI | β-galactosidase |  | 55.31 µM |
| CC1(C)CC[C@]2(C(=O)O)CC[C@]3(C)C(=CC[C@@H]4[C@@]5(C)CC[C@H](O)C(C)(C)[C@@H]5CC[C@]43C)[C@@H]2C1 | Primary clinical isolate Rome |  | PBMC/HIV-1 + PBMC | p24 |  | 24.6 µM |

Repeating the first 4 entries:

| smiles | strain | changes | cell line | method | conditions | value |
|---|---|---|---|---|---|---|
| Cc1c(O)cccc1C(=O)N[C@@H](CSc1ccccc1)[C@H](O)CN1C[C@H]2CCCC[C@H]2C[C@H]1C(=O)NC(C)(C)C | NL4-3 WT |  | HEK 293 + 293 Cells | luciferase / recombinant virus assay |  | 0.007 µM |
| Cc1cc(C#N)cc(C(=O)c2cc(Cl)ccc2OCC(=O)Nc2ccc(S(N)(=O)=O)nc2C)c1 | HXB2 |  | HeLa + HeLa-MAGI | β-galactosidase |  | 0.002 µM |
| C1=C\CCCCN(CC[C@H]2NCCc3c2[nH]c2ccccc32)CCCC/1 | NL4-3 |  | CEM-GXR | GFP / reporter gene |  | 3.4 µM |
| O=C(O)P(=O)(O)O | 8618 CLADE B CLADE B |  | PBMC | p24 |  | 11 µM |